Measurements from PMC11109247.
Values joined by “and” are separate entries in the source; they are usually repeats but may differ in a detail not shown here. Equal values may be shown once.

Target: NiVBD G ectodomain (Nipah virus Bangladesh attachment glycoprotein, residues 71-602), Strep-tagged (Nipah virus (Bangladesh strain))
Test: SDS-PAGE without reduction and boiling

“NiVBD G ectodomain (Nipah virus Bangladesh attachment glycoprotein, residues 71-602), Strep-tagged (domain or fragment)” was tested, and the stoichiometry N was 4 and 2.
